Pooled drug test results. Numbers come from NIAID ChemDB, via PubChem.

Shared fields: whole-cell or culture tests; species: Varicella zoster virus

Neighbouring rows are from separate reports.

O=c1[nH]c(=O)n([C@@H]2O[C@H](CO)[C@@H](O)[C@@H]2O)cc1/C=C/Br ; strain or isolate: YS ; endpoint: EC50 ; cells: HEL ; method: plaque count ; result: 0.002 µM
Nc1nc2c(ncn2C[C@]2(CO)C[C@H]2CO)c(=O)[nH]1 ; endpoint: EC50 ; result: 0.1–1 µM
C[C@H](Cn1cnc2c(N)ncnc21)OCP(=O)(O)O ; strain or isolate: YS ; endpoint: EC50 ; cells: HEL ; method: plaque count ; result: >50 µM
Nc1nccc2c1ncn2C[C@@H](CO)OCP(=O)(O)O ; strain or isolate: 13 isolates ; endpoint: EC50 ; cells: HEL ; method: plaque count ; result: 0.15 µM
O=c1[nH]c(=S)n([C@@H]2O[C@H](CO)[C@@H](O)[C@@H]2O)cc1Br ; strain or isolate: HOSEN ; endpoint: EC50 ; cells: MRC-5 ; method: plaque count ; result: 141 µM
Nc1ncnc2c1ncn2CCOCP(=O)(O)O ; endpoint: MIC ; result: 10 µg/mL
Nc1nc2c(ncn2[C@@H]2C[C@H](CO)[C@H]2CO)c(=O)[nH]1 ; strain or isolate: YS ; endpoint: EC50 ; cells: HEL ; method: plaque count ; result: 0.6 µM
Nc1ncnc2c1ncn2[C@@H]1O[C@H](CO)[C@H]1CO ; strain or isolate: OKA (TK+) ; endpoint: EC50 ; cells: HEL ; method: plaque count ; result: 3.6 µM
CC#Cc1cn([C@@H]2O[C@H](COP(=O)(NCCC)Oc3ccccc3)[C@@H](O)[C@@H]2O)c(=O)[nH]c1=O ; strain or isolate: G-31 ; endpoint: EC50 ; cells: MRC-5 ; method: plaque count ; result: >100 µM
Nc1ncnc2c1ncn2CCOCP(=O)(O)O ; strain or isolate: Oka PMEA-resistant ; endpoint: EC50 ; cells: HEL ; method: cytopathic effect ; result: ≥183 µM
Nc1nc2c(ncn2CCC(CO)CO)c(=O)[nH]1 ; endpoint: EC50 ; result: 1–10 µM
C=C(/C=C/P(=O)(O)O)Cn1cnc2c(=O)[nH]c(N)nc21 ; strain or isolate: ELLEN ; endpoint: EC50 ; cells: MRC-5 ; method: plaque count ; result: >300 µM
O=c1[nH]c(=S)n([C@H]2C[C@H](O)[C@@H](CO)O2)cc1I ; strain or isolate: HOSEN ; endpoint: EC50 ; cells: MRC-5 ; method: plaque count ; result: 3.63 µM
CC#Cc1cn([C@@H]2O[C@H](COP(=O)(O)Oc3ccccc3)[C@@H](O)[C@@H]2O)c(=O)[nH]c1=O ; strain or isolate: G-31 ; endpoint: EC50 ; cells: MRC-5 ; method: plaque count ; result: >100 µM
Cc1cn([C@@H]2O[C@H](CO)[C@@H](O)[C@@H]2O)c(=S)[nH]c1=O ; strain or isolate: HOSEN ; endpoint: EC50 ; cells: MRC-5 ; method: plaque count ; result: 224 µM
Nc1ncnc2c1ncn2C[C@H]1COP(=O)(O)CO1 ; strain or isolate: OKA (TK+) ; endpoint: EC50 ; cells: HEL ; method: plaque count ; result: 0.16 µM
Nc1ccn([C@@H]2C[C@@H](O)[C@H](CO)O2)c(=O)n1 ; endpoint: EC50 ; cells: HFF ; result: >100 µM
Nc1nc2c(ncn2CCC(CO)CO)c(=O)[nH]1 ; strain or isolate: YS ; endpoint: EC50 ; cells: HEL ; method: plaque count ; result: 3.3 µM
CC#Cc1cn([C@@H]2O[C@H](COP(=O)(O)OCC)[C@@H](O)[C@@H]2O)c(=O)[nH]c1=O ; strain or isolate: G-31 ; endpoint: EC50 ; cells: MRC-5 ; method: plaque count ; result: >100 µM
Nc1nc(Cl)c2ncn(C[C@H]3CC[C@@H](CO)C3)c2n1 ; strain or isolate: OKA ; endpoint: EC50 ; cells: HEL ; method: plaque count ; result: >20 µg/mL
CCC#Cc1ccc2c(c1)c(=O)c(C(=O)NCc1ccc(Cl)cc1)nn2C ; endpoint: EC50 ; result: <20 µM
Nc1nc(N)c2ncn(CCOCP(=O)(O)O)c2n1 ; strain or isolate: YS ; endpoint: EC50 ; cells: HEL ; method: plaque count ; result: 4.5 µM
Nc1nc2ncn(COCCCl)c2c(=O)[nH]1 ; strain or isolate: YS (TK+) ; endpoint: EC50 ; cells: VERO ; method: cytopathic effect ; result: >128 µg/mL
Nc1ncnc2c1ncn2OCC/C=C\P(=O)(O)O ; strain or isolate: ELLEN ; endpoint: EC50 ; cells: MRC-5 ; method: plaque count ; result: >300 µM
C[C@@H]1CC[C@H]2[C@@H](C)C(=O)O[C@@H]3OC4(C)CC[C@@H]1[C@]32OO4 ; strain or isolate: YS ; endpoint: EC50 ; cells: HEL ; method: plaque count ; result: >50 µg/mL
O=c1[nH]c(=O)n([C@H]2C[C@H](O)[C@@H](CO)O2)cc1/C=C/Br ; strain or isolate: YS ; endpoint: EC50 ; cells: HEL ; method: plaque count ; result: 0.0008 µg/mL
O=C(NCc1ccc(Cl)cc1)c1n[nH]c2ccccc2c1=O ; endpoint: EC50 ; result: 1.1 µM
O=C(Nc1ncc([N+](=O)[O-])s1)c1ccccc1O ; endpoint: EC50 ; method: cytopathic effect ; result: 4 µg/mL
Nc1nc(N)c2ncn(CCOCP(=O)(O)O)c2n1 ; endpoint: MIC ; result: 2 µg/mL
Nc1ncnc2c1ncn2OC(/C=C/P(=O)(O)O)CO ; strain or isolate: ELLEN ; endpoint: EC50 ; cells: MRC-5 ; method: plaque count ; result: >300 µM
Nc1nc(N)c2ncn(C[C@H]3CC[C@@H](CO)C3)c2n1 ; strain or isolate: YS ; endpoint: EC50 ; cells: HEL ; method: plaque count ; result: >50 µg/mL
Nc1ccn(OC(/C=C/P(=O)(O)O)CO)c(=O)n1 ; strain or isolate: ELLEN ; endpoint: EC50 ; cells: MRC-5 ; method: plaque count ; result: >300 µM
CCCCCCCCc1cc2cn([C@H]3C[C@H](O)[C@@H](CO)O3)c(=O)nc2o1 ; strain or isolate: Strains YS and Oka ; endpoint: EC50 ; cells: HEL ; method: plaque count ; result: 0.016 µM
CC#Cc1cn([C@@H]2O[C@H](CO)[C@@H](O)[C@@H]2O)c(=O)[nH]c1=O ; strain or isolate: G-31 ; endpoint: EC50 ; cells: MRC-5 ; method: plaque count ; result: 2 µM
O=c1[nH]c(=O)n([C@H]2C[C@H](O)[C@@H](CO)S2)cc1/C=C/Br ; strain or isolate: YS ; endpoint: EC50 ; cells: HEL ; method: plaque count ; result: 0.006 µM
Nc1nc(N)c2ncn(CCOCP(=O)(O)O)c2n1 ; strain or isolate: BVaraU-resistant ; endpoint: EC50 ; cells: HEL ; method: plaque count ; result: 0.93 µg/mL
Nc1nc(N)c2ncn(CC/C=C/P(=O)(O)O)c2n1 ; strain or isolate: ELLEN ; endpoint: EC50 ; cells: MRC-5 ; method: plaque count ; result: >300 µM
Nc1cc(OCCOCP(=O)(O)O)nc(N)n1 ; strain or isolate: YS ; endpoint: EC50 ; method: cytopathic effect ; result: 2.7 µM
Nc1nc(Cl)c2nnn(C[C@H]3CC[C@@H](CO)C3)c2n1 ; strain or isolate: YS/R (TK-) ; endpoint: EC50 ; cells: HEL ; method: plaque count ; result: >200 µg/mL
CC#Cc1cn([C@@H]2O[C@H](COP(=O)(O)Oc3c(C)cccc3C)[C@@H](O)[C@@H]2O)c(=O)[nH]c1=O ; strain or isolate: G-31 ; endpoint: EC50 ; cells: MRC-5 ; method: plaque count ; result: >100 µM
Nc1nc2c(nnn2C[C@H]2CC[C@@H](CO)C2)c(=O)[nH]1 ; strain or isolate: YS/R (TK-) ; endpoint: EC50 ; cells: HEL ; method: plaque count ; result: >200 µg/mL
O=c1[nH]c(=S)n([C@@H]2O[C@H](CO)[C@@H](O)[C@@H]2O)cc1I ; strain or isolate: HOSEN ; endpoint: EC50 ; cells: MRC-5 ; method: plaque count ; result: 36.3 µM
CC#Cc1cn([C@@H]2O[C@H](COP(=O)(O)OCC(F)(F)F)[C@@H](O)[C@@H]2O)c(=O)[nH]c1=O ; strain or isolate: G-31 ; endpoint: EC50 ; cells: MRC-5 ; method: plaque count ; result: >100 µM
Nc1nc2c(ncn2COC(CO)CO)c(=O)[nH]1 ; strain or isolate: YS ; endpoint: EC50 ; cells: HEL ; method: plaque count ; result: 3.5 µM
Nc1nc(=S)n([C@H]2C[C@H](O)[C@@H](CO)O2)cc1I ; strain or isolate: HOSEN ; endpoint: EC50 ; cells: MRC-5 ; method: plaque count ; result: 95.1 µM
Nc1ncnc2ncn(COCCCl)c12 ; strain or isolate: YS/R (TK-) ; endpoint: EC50 ; cells: VERO ; method: cytopathic effect ; result: >128 µg/mL
CC#Cc1cn([C@@H]2O[C@H](COP(=O)(O)Oc3ccc(Cl)cc3)[C@@H](O)[C@@H]2O)c(=O)[nH]c1=O ; strain or isolate: G-31 ; endpoint: EC50 ; cells: MRC-5 ; method: plaque count ; result: 100 µM
Nc1ncnc2c1ncn2OCCOCP(=O)(O)O ; strain or isolate: ELLEN ; endpoint: EC50 ; cells: MRC-5 ; method: plaque count ; result: >300 µM

Again, the opening 2 rows:

compound | strain or isolate | endpoint | cells | method | result
O=c1[nH]c(=O)n([C@@H]2O[C@H](CO)[C@@H](O)[C@@H]2O)cc1/C=C/Br | YS | EC50 | HEL | plaque count | 0.002 µM
Nc1nc2c(ncn2C[C@]2(CO)C[C@H]2CO)c(=O)[nH]1 | - | EC50 | - | - | 0.1–1 µM

ECn is the concentration giving n% inhibition of infection, replication or growth. Blank or dashed fields: not listed here. a–b is a range or a potency band.